Pooled drug test results. Numbers come from NIAID ChemDB, via PubChem.

All rows: tests in culture; agent: Human cytomegalovirus; method: plaque count; endpoint: EC50

Conditions beyond the fields shown may differ between rows. ECn is the concentration giving n% inhibition of infection, replication or growth. An empty or dashed field is not shown.

Nc1nc2c(ncn2COC(CO)CO)c(=O)[nH]1 ; strain or isolate: TOWNE ; result: 4.9 µM
Nc1ccn(C[C@@H](CO)OCP(=O)(O)O)c(=O)n1 ; cells: MRC-5 ; strain or isolate: C8805/37-1-1 (drug-resistant mutant) ; result: 0.84 µM
Nc1ccn(C[C@@H](CO)OCP(=O)(O)O)c(=O)n1 ; cells: HEL ; strain or isolate: Cidofovir-resistant ; result: 4.44 µM
CC(C)Nc1nc2cc(Cl)c(Cl)cc2n1[C@H]1O[C@@H](CO)[C@H](O)[C@@H]1O ; cells: MRC-5 ; strain or isolate: C9207 ; result: 0.44 µM
Nc1nc(NC2CC2)c2ncn(C=C3CC3CO)c2n1 ; cells: HFF ; strain or isolate: C9209/1-4-4 ; result: 6.6 µM
O=C(NCc1ccc(Cl)cc1)c1c[nH]c2c(F)cccc2c1=O ; strain or isolate: ADI ; result: 19 µM
Nc1nc2c(ncn2COC(CO)CO)c(=O)[nH]1 ; cells: HFF ; strain or isolate: CH ; result: 4.3 µM
Nc1ncnc2c1ncn2/C=C1/C[C@@H]1CO ; cells: HFF ; strain or isolate: AD169 ; result: 1.9 µM
Nc1nc2c(ncn2C[C@@H]2CC[C@@H](P(=O)(O)O)O2)c(=O)[nH]1 ; cells: MRC-5 ; strain or isolate: C8704 (ganciclovir-resistant) ; result: 0.3 µg/mL
OC[C@H]1O[C@@H](n2c(Br)nc3cc(Cl)c(Cl)cc32)[C@H](O)[C@@H]1O ; cells: HFF ; strain or isolate: DAVIS ; result: 0.6 µM
Nc1ncnc2c1ncn2C=C1CC1CO ; strain or isolate: VR5120 (ganciclovir-resistant) ; result: 2 µM
Nc1nc2c(ncn2COC(CO)CO)c(=O)[nH]1 ; cells: MRC-5 ; strain or isolate: C8302 ; result: 2.7 µM
CCCCCCCCCCCCCCCCCCOCCOP(=O)(O)CO[C@H](CO)Cn1ccc(N)nc1=O ; cells: MRC-5 ; strain or isolate: GDGP53 (drug-resistant mutant) ; result: 0.02 µM
COc1cccc(N2CCN(C3=Nc4c(F)cccc4[C@H](CC(=O)O)N3c3cc(C(F)(F)F)ccc3OC)CC2)c1 ; strain or isolate: 759rD100 ; result: 0.0024 µM
O=C(O)P(=O)(O)O ; cells: HEL ; strain or isolate: LY9725 (ganciclovir-resistant) ; result: 80.6 µM
Nc1ccn(C[C@H]2COP(=O)(O)CO2)c(=O)n1 ; cells: MRC-5 ; strain or isolate: Toledo ; result: 17.1 µM
Nc1nc2c(ncn2C=C2CC2CO)c(=O)[nH]1 ; cells: HFF ; strain or isolate: C8706/13-1-1 ; result: 12 µM
Nc1nc2c(ncn2COC(CO)CO)c(=O)[nH]1 ; strain or isolate: D16 (DHPG-R) ; result: 44 µM
Nc1ccn(C[C@@H](CO)OCP(=O)(O)O)c(=O)n1 ; cells: MRC-5 ; strain or isolate: C8704 (ganciclovir-resistant) ; result: 0.4 µg/mL
O[C@@H]1[C@H](O)[C@H](O)CO[C@H]1n1c(Br)nc2cc(Cl)c(Cl)cc21 ; cells: HFF ; strain or isolate: C8805/37-1-1 (drug-resistant) ; result: 2.8 µM

2 of the rows above, restated:

structure	cells	strain or isolate	result
Nc1nc2c(ncn2COC(CO)CO)c(=O)[nH]1	-	TOWNE	4.9 µM
Nc1nc2c(ncn2C=C2CC2CO)c(=O)[nH]1	HFF	C8706/13-1-1	12 µM